Columns and labels:
Conditions in all cases: mouse, in vivo
[1] = test system: paclitaxel-induced cold allodynia
[2] = test system: paclitaxel-induced thermal hyperalgesia
[3] = test system: paclitaxel-induced mechanical allodynia

Substance: Octahydro-12-(Hydroxymethyl)-2-imino-5,9,7,10a-dimethano-10aH-[1,3]dioxocino[6,5-d]pyrimidine-4,7,10,11,12-pentol [TTX]
- effect on development of paclitaxel-induced cold allodynia (duration and frequency of paw licking/biting) [1]: non-significantly different from that obtained on pre-treatment day
- effect on duration and frequency of paw licking/biting in control animals (acetone test) [1]: No statistically significant differences
- effect on development of paclitaxel-induced thermal hyperalgesia (latency to hind paw withdrawal, plantar test) [2]: No statistically significant differences
- effect on expression of paclitaxel-induced thermal hyperalgesia (paw withdrawal latency) [2]: inhibited paclitaxel-induced thermal hyperalgesia in a dose-dependent manner
- effect on paw withdrawal latency in control animals (plantar test) [2]: No statistically significant differences
- effect on development of paclitaxel-induced mechanical allodynia (threshold force, Von Frey test) [3]: inhibited the development
- effect on expression of paclitaxel-induced mechanical allodynia (threshold force) [3]: inhibited mechanical allodynia
- effect on threshold force for hind paw withdrawal in control animals (Von Frey test) [3]: No statistically significant differences
